According to US7465457, “Method of preparing botulinum neurotoxin type E light chain” (dated 2008):

Target: GST-SNAP25bHA (GST fusion of human SNAP25b with a C-terminal HA epitope) (UniProt P60880)

Substance: BoNT/A holotoxin (botulinum neurotoxin type A)
- Kcat: 1 s⁻¹
- Kcat/Km: 20000 M⁻¹ s⁻¹
- Km: 64 µM
- Vmax: 1.2 µM/min/mg
